Anti-infective test results gathered from many reports (values: NIAID ChemDB through PubChem).

All rows: target-level tests

Fold resistance: result on the changed form divided by that on wild type. Two numbers with a dash give a range or band. ICn: concentration for n% inhibition. Rows are shuffled and stem from different studies. An empty or dashed field is not shown.

CC(C)S(=O)(=O)Nc1cn2ccn(Cc3ccc(F)cc3)c(=O)c2c(O)c1=O ; organism: HIV-1 ; target: Integrase ; measure: IC50 ; read by: ELISA ; result: 0.01–0.1 µM
O=C(CSc1nnnn1-c1ccc(C2CC2)cc1Cl)Nc1ccc(C#CC2(CN3CCC(O)CC3)CC2)cc1Cl ; organism: HIV-1 ; target: Reverse transcriptase ; mutations: RT-K103 Y181C ; measure: IC50 ; read by: PicoGreen / fluorescence ; result: <1 µM
COCc1c(-c2ccccn2)c(=O)c(O)c2n1CCN(Cc1ccc(F)cc1)C2=O ; organism: HIV-1 ; target: Integrase ; measure: IC50 ; read by: ELISA ; result: 0.01–0.1 µM
CC1(C)NCCCn2c1nc(C(=O)NCc1ccc(F)cc1)c(O)c2=O ; organism: HIV-1 ; target: Integrase ; measure: IC50 ; read by: ELISA ; result: <10 µM
CS(=O)(=O)Nc1cn2c(c(O)c1=O)C(=O)N(Cc1ccc(F)c(Cl)c1)CC2 ; organism: HIV-1 ; target: Integrase ; measure: IC50 ; read by: ELISA ; result: <0.01 µM
CC(C)(C)c1ccc(-n2nnnc2SCC(=O)Nc2ccc(NC(=O)Cc3ccccc3)cc2Cl)c(Cl)c1 ; organism: HIV-1 ; strain: WT ; target: Reverse transcriptase ; measure: IC50 ; read by: PicoGreen / fluorescence ; result: <1 µM
CC(O)CNC(=O)c1cn2ccn(Cc3cccc(Cl)c3)c(=O)c2c(O)c1=O ; organism: HIV-1 ; target: Integrase ; measure: IC50 ; read by: ELISA ; result: 0.01–0.1 µM
CN(C)C(=O)C(=O)N1CCN2CCn3c(nc(C(=O)NCc4ccc(F)cc4)c(O)c3=O)C1C2 ; organism: HIV-1 ; target: Integrase ; measure: IC50 ; read by: ELISA ; result: <10 µM
CC(C)(C)c1ccc(-n2nnnc2SCC(=O)Nc2ccc(C(=O)NCCO)cc2Cl)c(Cl)c1 ; organism: HIV-1 ; target: Reverse transcriptase ; mutations: RT-K103 Y181C ; measure: IC50 ; read by: PicoGreen / fluorescence ; result: <1 µM
Nc1nc2c(ncn2[C@H]2CO[C@@H](COP(=O)(O)OP(=O)(O)OP(=O)(O)O)O2)c(=O)[nH]1 ; organism: HIV ; target: Reverse transcriptase ; mutations: RT-K65R K103N Q151M ; measure: fold resistance ; read by: radiometric ; result: 7.8
Cc1ccc(Cl)cc1Nc1nc(C(F)(F)F)ccc1C(=O)NN1CCN(c2cccc(Cl)c2)CC1 ; organism: HIV-1 ; target: RNase H ; measure: IC50 ; read by: RNase H / absorbance ; result: 18 µM
Cc1cc(CNC(=O)c2nc3n(c(=O)c2O)CCNCC3N(C)C(=O)C(=O)N(C)C)ccc1F ; organism: HIV-1 ; target: Integrase ; measure: IC50 ; read by: ELISA ; result: <10 µM
CCCCCN1CCn2cc(-c3nccs3)c(=O)c(O)c2C1=O ; organism: HIV-1 ; target: Integrase ; measure: IC50 ; read by: ELISA ; result: 0.1–1 µM
CN(C)CCCNC(=O)C(C)(C)C#Cc1ccc(NC(=O)CSc2nnnn2-c2ccc(C3CC3)cc2Cl)c(Cl)c1 ; organism: HIV-1 ; strain: WT ; target: Reverse transcriptase ; measure: IC50 ; read by: PicoGreen / fluorescence ; result: <1 µM
O=C(Nc1cn2ccn(Cc3ccc(F)cc3)c(=O)c2c(O)c1=O)c1ccccc1 ; organism: HIV-1 ; target: Integrase ; measure: IC50 ; read by: ELISA ; result: <0.01 µM
CC(C)(O)C#Cc1ccc(NC(=O)CSc2nnnn2-c2ccc(C(C)(C)C)cc2Cl)c(Cl)c1 ; organism: HIV-1 ; strain: WT ; target: Reverse transcriptase ; measure: IC50 ; read by: PicoGreen / fluorescence ; result: <1 µM
CN1CCn2c(nc(C(=O)NCc3ccc(F)cc3)c(O)c2=O)C1COCc1ccccc1 ; organism: HIV-1 ; target: Integrase ; measure: IC50 ; read by: ELISA ; result: <10 µM
O=C(Cn1ccn2ccc(=O)c(O)c2c1=O)Nc1ccccc1 ; organism: HIV-1 ; target: Integrase ; measure: IC50 ; read by: ELISA ; result: 0.1–1 µM
CC(C)(C)c1ccc(-n2nnnc2SCC(=O)Nc2ccc(S(=O)(=O)NCCO)cc2Cl)c(Cl)c1 ; organism: HIV-1 ; target: Reverse transcriptase ; mutations: RT-K103 Y181C ; measure: IC50 ; read by: PicoGreen / fluorescence ; result: <1 µM
CC1(C)c2nc(C(=O)NCc3ccc(F)cc3)c(O)c(=O)n2CCN1Cc1ccccc1 ; organism: HIV-1 ; target: Integrase ; measure: IC50 ; read by: ELISA ; result: <10 µM
CC(C)(C)c1ccc(-n2nnnc2SCC(=O)Nc2ccc(S(=O)(=O)NCC(=O)O)cc2Cl)c(Cl)c1 ; organism: HIV-1 ; strain: WT ; target: Reverse transcriptase ; measure: IC50 ; read by: PicoGreen / fluorescence ; result: <1 µM
O=c1ccn2c(CO)cn(Cc3ccc(Cl)c(Cl)c3)c(=O)c2c1O ; organism: HIV-1 ; target: Integrase ; measure: IC50 ; read by: ELISA ; result: <0.01 µM
Cn1cc(CN2CCn3c(nc(C(=O)NCc4ccc(F)cc4)c(O)c3=O)C2(C)C)nn1 ; organism: HIV-1 ; target: Integrase ; measure: IC50 ; read by: ELISA ; result: <10 µM
Cc1ccc(-n2nnnc2SCC(=O)Nc2ccc(/C=C/C(=O)O)cc2Cl)c(Cl)c1 ; organism: HIV-1 ; strain: WT ; target: Reverse transcriptase ; measure: IC50 ; read by: PicoGreen / fluorescence ; result: <1 µM

Again, the opening 3 rows:

SMILES	organism	strain	target	mutations	measure	read by	result
CC(C)S(=O)(=O)Nc1cn2ccn(Cc3ccc(F)cc3)c(=O)c2c(O)c1=O	HIV-1		Integrase		IC50	ELISA	0.01–0.1 µM
O=C(CSc1nnnn1-c1ccc(C2CC2)cc1Cl)Nc1ccc(C#CC2(CN3CCC(O)CC3)CC2)cc1Cl	HIV-1		Reverse transcriptase	RT-K103 Y181C	IC50	PicoGreen / fluorescence	<1 µM
COCc1c(-c2ccccn2)c(=O)c(O)c2n1CCN(Cc1ccc(F)cc1)C2=O	HIV-1		Integrase		IC50	ELISA	0.01–0.1 µM